{
  "source": "paper PMC12817916",
  "about": "“A small-molecule HSP90 inhibitor, NVP-HSP990, alleviates rotavirus infection” (Journal of Virology, 2025)",
  "test_system": "Caco-2 cells",
  "test": "RNA-seq analysis of host cell transcriptome",
  "format": "cell-based, Human",
  "conditions": "100 nM, 24 h",
  "key": {"[1]": {"conditions": "across all mock-, Wa-, and SA11-infected Caco-2 cells"}, "[2]": {"conditions": "in both Wa- and SA11-infected but not mock-infected Caco-2 cells"}},
  "data": [
    {"molecule": "COc1cccc(-c2cc(F)ccc2[C@H]2Cc3nc(N)nc(C)c3C(=O)N2)n1", "note": "[NVP-HSP990]", "values": [
      {"measurement": "number of genes downregulated", "setting": "[1]", "result": 287},
      {"measurement": "number of genes upregulated", "setting": "[1]", "result": 112},
      {"measurement": "number of genes downregulated", "setting": "[2]", "result": 96},
      {"measurement": "number of genes upregulated", "setting": "[2]", "result": 75}
    ]}
  ]
}
